The test system of the assay is Mammalian orthoreovirus, type 3 (strain Dearing, ATCC VR-824). The assay can be described thus: Reovirus model, titration on L929 cells (Table 2). In kind it is cell-based. The note with it: 0.05% inactivator.
The mark [1] stands for this setting: 16 hours, 2-8° C., then 3 hours at 37° C.

Some compounds may have been tested in ways that are not shown here.

The values below come from US9426989B2 (priority 2010, dated 2016).

For `CCC(C)(OO)OO`, the “Reduction (of reovirus titre)” value under setting [1] is recorded as 3.5 log 10.

Turning to `CCC(OO)OO`, the “Reduction (of reovirus titre)” value is, setting by setting: under setting [1], 5.0 log 10; (16 hours, 37° C.) 7.65 log 10; (24 hours, 19-23° C.) 5.8 log 10; (24 hours, 37° C.) “≧7.9 log 10”; (48 hours, 19-23° C.) 5.5 log 10.
